Measurements reported in PubChem BioAssay AID1259414 (Drosophila RNAi Screening Center, 2018).
The deposit covers about 24,000 reagents; shown is an unselected part of those with a known target gene and a result. In the full data, about 1,210 (5%) were called active. 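Inactive calls also include excluded dsRNAs with several or no targets, genes unexpressed in JW18, and well A1, regardless of score.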 The numbers tell different reagents against one gene apart. A plus sign joins genes that one reagent is predicted to hit.

- Assay: 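Genome-wide screen for host control of endosymbiont load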 (primary screen)
- System: Drosophila JW18 cells infected with Wolbachia
- Reagent: long dsRNA against Drosophila genes, 0.25 µg dsRNA per well of a 384-well plate
- Time to read-out: 5 days
- Challenge: cells persistently infected with Wolbachia before knock-down; no added drug
- Measured: 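Automated imaging of bacterial rRNA staining divided by host cell count, reported as plate-normalised robust z-score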
- Scale: Wolbachia per cell robust z: higher = more Wolbachia per host cell than the plate typical
- Call rule: 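Active if absolute robust z reaches 1.5 in two or more of three replicates, leaving out multi- or no-target dsRNAs, genes unexpressed in JW18 and A1 wells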

Target gene | reagent no. | Wolbachia per cell robust z, rep 1 | Wolbachia per cell robust z, rep 2 | Wolbachia per cell robust z, rep 3 | outcome
mTor | 1 | 0.647 | -1.32 | 1.83 | inactive
mTor | 2 | 0.478 | 1.85 | 1.04 | inactive
nahoda | 1 | 0.412 | -0.827 | 0.304 | inactive
nahoda | 2 | 0.558 | 0.929 | 0.867 | inactive
Acyp | 1 | -0.744 | 0.00453 | 0.3 | inactive
Acyp | 2 | -0.202 | -2.5 | -0.139 | inactive
Spt7 | 1 | -3.61 | 0.61 | -0.374 | inactive
Spt7 | 2 | -0.301 | -1.12 | -2.58 | inactive
CanA1 | 1 | 0.717 | -0.715 | -1.57 | inactive
CanA1 | 2 | -0.223 | 0.677 | 0.362 | inactive
Zfrp8 | 1 | -0.427 | 0.143 | -0.627 | inactive
CG1785 | 1 | 1.19 | 0.0393 | -0.481 | inactive
CG1785 | 2 | 0.716 | -0.583 | -0.362 | inactive
CG13229 | 1 | 0.877 | 0.522 | 0.809 | inactive
CG7369 | 1 | 2.22 | 0.943 | 2.54 | active
Ktl | 1 | -0.175 | -0.174 | -0.517 | inactive
CG1663 | 1 | -0.582 | 0.441 | 0.244 | inactive
CG1663 | 2 | 0.491 | 0.584 | 0.0526 | inactive
CG1663 | 3 | 0.5 | 0.699 | -0.0283 | inactive
CG32085 | 1 | -0.15 | -1.27 | -0.927 | inactive
CG32085 | 2 | -0.377 | 0.17 | 1.39 | inactive
CG32085 | 3 | -0.0275 | 0.973 | 0.8 | inactive
Gr22f | 1 | -0.171 | 0.0475 | 0.624 | inactive
Gr22f | 2 | 0.402 | -3.61 | 0.255 | inactive
spn-A | 1 | 0.0251 | 1.22 | 0.678 | inactive
Not11 | 1 | -0.783 | 0.258 | -0.206 | inactive
Psc | 1 | -1.41 | -1.97 | -4.18 | active
Psc | 2 | 0.939 | 0.86 | 1.03 | inactive
psq | 1 | 0.357 | 0.765 | -0.161 | inactive
psq | 2 | 0.0961 | 0.855 | -0.579 | inactive

Hits, among the entries above:
Target gene | reagent no. | Wolbachia per cell robust z, rep 1 | Wolbachia per cell robust z, rep 2 | Wolbachia per cell robust z, rep 3 | outcome
CG7369 | 1 | 2.22 | 0.943 | 2.54 | active
Psc | 1 | -1.41 | -1.97 | -4.18 | active

Additional records:
Target gene | reagent no. | Wolbachia per cell robust z, rep 1 | Wolbachia per cell robust z, rep 2 | Wolbachia per cell robust z, rep 3 | outcome
CG11777 | 1 | -1.19 | -0.227 | -0.433 | inactive
CG11777 | 2 | 0.0224 | -2.07 | -0.0783 | inactive
Lcp65Ag1 + Lcp65Ag2 + Lcp65Ag3 | 1 | 0.637 | -0.0373 | 0.804 | inactive
ana2 | 1 | 0.305 | 0.446 | -0.868 | inactive
ana2 | 2 | -3.22 | -0.679 | -0.0512 | inactive
flip | 1 | 0.297 | 0.703 | 0.345 | inactive
CG13473 | 1 | 0.732 | 0.126 | -8.33 | inactive
Cyp318a1 | 1 | 0.692 | 1.06 | 0.376 | inactive
Mst36Fb | 1 | -1.09 | 0.678 | -1.17 | inactive
Mst36Fb | 2 | -2.33 | 0.921 | 1.79 | inactive
CG16984 | 1 | -3.46 | -4.59 | -0.842 | inactive
CG16984 | 2 | -0.304 | 0.884 | 1.11 | inactive
Trissin | 1 | 0.456 | -1.1 | 0.419 | inactive
Sfp35C | 1 | 0.0695 | -0.309 | 0.692 | inactive
mRpL49 | 1 | -0.151 | -0.507 | -0.614 | inactive
NtR | 1 | -0.307 | -1.07 | -0.606 | inactive
NtR | 2 | 0.118 | 0.449 | 0.987 | inactive
